A mixed list of measured activities; the numbers were collected in NIAID ChemDB.

All rows: tests in culture; species: HIV-1

Lines come from different laboratories, so protocols vary. An empty or dashed field is not shown. ECn: concentration that inhibits the pathogen or its effect by n%.

SMILES	mutations	setting	endpoint	method	strain or isolate	cells	value
CC(C)[C@H](NC(=O)OCc1ccccc1)C(=O)N[C@@H](Cc1ccccc1)[C@@H](O)[C@@H](NCc1ccc(Cl)cc1)C(=O)N[C@H](C(=O)NCc1ccccc1)C(C)C			EC50	MTT / p24	IIIB	MT-4	0.109 µM
Nc1nc(=O)n([C@@H]2CS[C@H](CO)O2)cc1F	RT-M41L Y181C M184V T215Y		EC50	plaque count	RTMN(181 184) (RT M41L Y181C M184V T215Y)	HT4 + HT4 LacZ-1	>500 µM
Nc1nc2c(ncn2COCCO)c(=O)[nH]1			EC50	RT activity	LAI	PBMC	>100 µM
Nc1nc(=O)n([C@@H]2C[Se][C@H](CO)O2)cc1F			EC50	trypan blue	LAV	PBMC	0.07 µM
COc1c(-c2ccc(O)cc2)oc2cc(O)c(CC=C(C)C)c(O)c2c1=O			EC50	cytopathic effect / MTT	IIIB	MT-4	>8 µg/mL
C#CC1(CO)O[C@@H](n2c(Cl)nc3c(=O)[nH]c(N)nc32)[C@H](O)[C@@H]1O			EC50	cytopathic effect / MTT	LAI	MT-4	>400 µM
Cc1ccc(-n2c(C)nnc2SCC(=O)Nc2ccc(S(N)(=O)=O)cc2Cl)c2ccccc12	RT-Y188L		EC50	luciferase	NL4-3	HeLa + HeLa-JC53	0.02 µM
NC(N)=NCCC[C@H](N)C(=O)NC[C@@H]1OC(O[C@H]2[C@@H](O)[C@H](O[C@@H]3[C@@H](O)[C@H](NC(=O)[C@@H](N)CCCN=C(N)N)C[C@H](NC(=O)[C@@H](N)CCCN=C(N)N)[C@H]3O[C@H]3O[C@H](CNC(=O)[C@@H](N)CCCN=C(N)N)[C@@H](O)[C@H](O)[C@H]3NC(=O)[C@@H](N)CCCN=C(N)N)O[C@@H]2CO)[C@H](NC(=O)[C@@H](N)CCCN=C(N)N)[C@@H](O)[C@@H]1O			EC50	cytopathic effect / MTT	NL4-3	MT-4	0.73 µM
Cc1cc(C#N)cc(C)c1Oc1nc(Nc2ccc(C#N)cc2)nc(N)c1Br	L100I		EC50	MTT	IIIB	MT-4	0.0049 µM
Cc1ccnc2c1NC(=O)c1cccnc1N2C1CC1	RT-M41L T215Y		EC50	plaque count	RTMN (RT-M41L T215Y)	HT4 + HT4 LacZ-1	0.1 µM
COc1c2c(cc3c1CCC(C)(C)O3)OC[C@@H](c1ccc(O)c(CC=C(C)C)c1O)C2			EC50	MTT	IIIB	MT-4	>10 µg/mL
Cc1ccc(-n2c(C)nnc2SCC(=O)Nc2cccc(C)c2C)cc1	RT-K103N Y181C		EC50	luciferase	NL4-3	HeLa + HeLa-JC53	>10 µM
O=C1CN=C(c2ccc[nH]2)c2cc(Cl)ccc2N1			EC50	cytopathic effect / trypan blue	IIIB/LAI	MT-4	>1.3 µM
CCCCCc1ccc(C#Cc2cn(COCCO)c(=O)[nH]c2=O)cc1			EC90	RT activity	LAI	PBMC	>100 µM
Cc1cc([N+](=O)[O-])ccc1NC(=O)CSc1sc(Cl)nc1-c1ccc(Br)cc1Br			EC50	MTT	IIIB	MT-4	3.33 µM
CCCCCc1ccc(C#Cc2cn(CC=C(CO)CO)c(=O)[nH]c2=O)cc1			EC90	RT activity	LAI	PBMC	69.7 µM
Nc1ccn([C@@H]2CC[C@H](CO)O2)c(=O)n1	RT-L74V		EC50		74V (RT-L74V)	HT4 + HT4 LacZ-1	6.3 µM
O=C(CSc1sc(Cl)nc1-c1ccc(Br)cc1Br)Nc1cccnc1Cl	E138K		EC50	MTT	IIIB	MT-4	8.28 µM
O=c1[nH]cnc2c1ncn2[C@H]1CC[C@@H](CO)O1	RT-Y181C		EC50	β-galactosidase		HeLa	0.011 µM
CC1(C)CCc2c(O)ccc([C@@H]3COc4cc(O)ccc4C3)c2O1			EC50	MTT	IIIB	MT-4	>100 µg/mL
Nc1ncnc2c1ncn2CCOCP(=O)(O)O			EC50	syncytia	IIIB	CEM	8.5 ± 2.1 µM
CC(C)=CCc1c(O)cc2occ(-c3ccc4c(c3O)C=CC(C)(C)O4)c(=O)c2c1O			EC50	MTT	IIIB	MT-4	>20 µg/mL
COC(=O)[C@H](C)NP(=O)(OC[C@H]1O[C@@H](n2cc(C)c(=O)[nH]c2=O)C[C@@H]1N=[N+]=[N-])Oc1ccc(Br)cc1			EC50	p24	IIIB	PBMC	~0.001 µM
O=c1c(O)c(-c2ccc(O)c(O)c2)oc2cc(O)cc(O)c12			EC50	MTT	IIIB	MT-4	>100 µg/mL
Nc1nc(-c2ccc(Br)cc2Br)c(SCC(=O)Nc2ccccc2Br)s1			EC50	MTT	IIIB	MT-4	>33.18 µM
CC(C)[C@H](NC(=O)c1ccc2ccccc2n1)C(=O)N[C@@H](Cc1ccccc1)[C@H](O)CN1CC[C@@H](OCc2ccncc2)C[C@H]1C(=O)NC(C)(C)C			EC50	p24	Wg3523	PBMC	0.024 µM
Nc1nc(N)c2ncn([C@H]3CC[C@@H](CO)O3)c2n1			EC50	p24	LAV	C3	17 µM
Nc1ccn([C@H]2CC[C@@H](CO)O2)c(=O)n1	RT-Y181C		EC50	syncytia	IIIB-TSAO-m3T(10)(RT-Y181C)	CEM	0.02 µM
COc1ccc(CN[C@@H](C(=O)N[C@H](C(=O)NCc2nc3ccccc3[nH]2)C(C)C)[C@H](O)[C@H](Cc2ccccc2)NC(=O)[C@@H](NC(=O)OCc2ccccc2)C(C)(C)C)cc1		clinical isolate	EC50	p24	SF162	Monocytes + Monocyte	0.018 µM
Nc1nc2c(ncn2[C@H]2CO[C@@H](CO)O2)c(=O)[nH]1			EC50	cytopathic effect / MTT	LAI WT	MT-2	2.2 µM
Nc1ccn([C@H]2C[C@H](O)[C@](CO)(CF)O2)c(=O)n1	RT-M184V		EC50	β-galactosidase		HeLa	2 µM
NS(=O)(=O)c1ccc(NC(=O)CSc2nnc(C(F)(F)F)n2-c2cccc3ccccc23)c(Cl)c1	RT-Y188L		EC50	luciferase	NL4-3	HeLa + HeLa-JC53	0.049 µM
Nc1ccn([C@@H]2CC[C@H](CO)O2)c(=O)n1			EC50		LAI	PBMC	0.07 µM
Cc1ccc(NC(=O)CSc2nnc(C)n2-c2ccc(Cl)c3ccccc23)c(Cl)c1	RT-Y188L		EC50	luciferase	NL4-3	HeLa + HeLa-JC53	0.32 µM
C#CC1(CO)O[C@@H](n2cnc3c(N)ncnc32)[C@H](O)[C@@H]1O			EC50	cytopathic effect / MTT	LAI	MT-4	>400 µM
O=c1[nH]cnc2c1ncn2[C@H]1CC[C@@H](CO)O1			EC50	luciferase	NL4-3 WT	HeLa	2.64 µM
O=c1[nH]cnc2c1ncn2[C@H]1CC[C@@H](CO)O1			EC50	p24	Isolate 8093	PBMC	0.62 µM
COc1cc2c(c(OC)c1CC=C(C)C)C[C@H](c1ccc(O)cc1O)CO2			EC50	MTT	IIIB	MT-4	>10 µg/mL
Nc1ccn([C@H]2CC[C@@H](CO)O2)c(=O)n1			EC50	p24	LAV	C3	0.45 µM
CCn1cnc2ncn([C@@H]3O[C@H](CO[Si](C)(C)C(C)(C)C)C4(OS(=O)(=O)C=C4N)[C@H]3O[Si](C)(C)C(C)(C)C)c2c1=O			EC50	trypan blue	IIIB	MT-4	0.55 µg/mL
CC(C)=CCc1c(O)ccc(C(=O)/C=C/c2cc(O)c3c(c2)C=CC(C)(C)O3)c1O			EC50	cytopathic effect / MTT	IIIB	MT-4	>20 µg/mL
CC(C)(C)[Si](C)(C)OC[C@H]1O[C@@H](n2cnc3c(N)ncnc32)[C@H](O[Si](C)(C)C(C)(C)C)C12OS(=O)(=O)C=C2N			EC50	syncytia	IIIB	CEM	0.05 µg/mL
C#C[C@]1(CO)O[C@@H](n2cc(C)c(=O)[nH]c2=O)C[C@@H]1O	RT M41L T69SSG insertion T215Y		EC50	β-galactosidase	RT-M41L T69SSG T215Y	HeLa	0.44 µM
COc1ccc(-c2coc3cc(O)cc(O)c3c2=O)cc1			EC50	MTT	IIIB	MT-4	>100 µg/mL
COc1ncnc2c1ncn2[C@@H]1O[C@H](CO[Si](C)(C)C(C)(C)C)C2(OS(=O)(=O)C=C2N)[C@H]1O[Si](C)(C)C(C)(C)C			EC50	syncytia	IIIB	CEM	0.07 µg/mL
Nc1nc2c(ncn2[C@H]2C=C[C@@H](CO)C2)c(=O)[nH]1			EC90	p24	LAV	C3	2.3 µM
Cc1ccnc2c1NC(=O)c1cccnc1N2C1CC1	RT-L100I		EC50	syncytia	IIIB-BHAP)(0.1)(RT-L100I	CEM	0.05 µg/mL
Nc1ccn([C@H]2CC[C@@H](CO)O2)c(=O)n1			EC50	MTT	IIIB	MT-4	0.75 µM
Cc1ccc(NC(=O)CSc2nnc(C)n2-c2cccc3ccccc23)c(Cl)c1	RT-Y188L		EC50	luciferase	NL4-3	HeLa + HeLa-JC53	0.59 µM
Nc1ccccc1NC(=O)CSc1sc(Cl)nc1-c1ccc(Br)cc1Br			EC50	MTT	IIIB	MT-4	2.09 µM
CC(C)(C)[Si](C)(C)OC[C@H]1O[C@@H](n2cnc3c(=O)[nH]cnc32)[C@H](O[Si](C)(C)C(C)(C)C)C12OS(=O)(=O)C=C2N			EC50	syncytia	IIIB	C8166	0.4 µg/mL
Cc1cn([C@H]2C[C@H](N=[N+]=[N-])[C@@H](CO)O2)c(=O)[nH]c1=O	RT-Y181C		EC50	syncytia	IIIB-TSAO-m3T(10)(RT-Y181C)	CEM	0.002 µM
COc1cc2c(cc1/C=C/C(=O)c1ccc(O)cc1)CC(C)(C)C(C)O2			EC50	cytopathic effect / MTT	IIIB	MT-4	>20 µg/mL
COc1ccc(CN[C@@H](C(=O)N[C@H](C(=O)NCc2nc3ccccc3[nH]2)C(C)C)[C@H](O)[C@H](Cc2ccccc2)NC(=O)[C@@H](NC(=O)CCc2ccc(O)cc2)C(C)(C)C)cc1			EC50	MTT / p24	IIIB	HuT-78 + HUT 78	0.0347 µM
Nc1ncc2ncn([C@H]3CC[C@@H](CO)O3)c2n1			EC50	syncytia	IIIB	JM	8 µM
Cc1cn([C@H]2C[C@H](F)[C@@H](CO)O2)c(=O)[nH]c1=O			EC50	RT activity	IIIB	MT-4	0.008 µM
COc1ccc(CN[C@@H](C(=O)N[C@H]2c3ccccc3C[C@H]2O)[C@H](O)[C@H](Cc2ccccc2)NC(=O)[C@@H](NC(=O)OCc2ccccc2)C(C)(C)C)cc1			EC50	p24	IIIB	MOLT4 + MOLT-4	0.088 µM
Nc1nc(=O)n([C@@H]2CS[C@H](CO)O2)cc1F			EC50		IIIB	MT-4	0.5 µM
COc1ccc(-n2c(C)nnc2SCC(=O)Nc2ccccc2Br)c2ccccc12	RT-K103N Y181C		EC50	luciferase	NL4-3	HeLa + HeLa-JC53	0.093 µM
Cc1cn([C@H]2C=C[C@@H](CO)O2)c(=O)[nH]c1=O	RT-Q151M		EC50	cytopathic effect / MTT		MT-2	26 µM
Nc1nc(=O)n([C@H]2CC[C@@H](CO)O2)cc1F			EC50	RT activity	LAI	PBMC	0.019 µM
Cc1cn([C@@H]2O[C@H](CO[Si](C)(C)C(C)(C)C)C3(OS(=O)(=O)C=C3N)[C@H]2O[Si](C)(C)C(C)(C)C)c(=O)n(C)c1=O	RT-V179N		EC50	syncytia	IIIB-Pyridinone(0.1)(RT-V179N	CEM	0.22 µg/mL
Cn1c2ccccc2c2c1cc(C#N)c(=O)n2-c1ccc([N+](=O)[O-])cc1	RT-K103N Y181C		EC50	luciferase	NNRTI-resistant	HeLa	0.0276 µM
CCOCn1c(Sc2ccccc2)c(CC)c(=O)[nH]c1=O			EC50	syncytia	IIIB	CEM	0.005 ± 0.002 µg/mL
CNC(C)[C@H]1O[C@H](O[C@@H]2[C@@H](O)[C@H](O[C@@H]3OC[C@@](C)(O)[C@@H](NC)[C@@H]3O)[C@@H](NC(=O)[C@@H](N)CCCN=C(N)N)C[C@H]2NC(=O)[C@@H](N)CCCN=C(N)N)[C@H](NC(=O)[C@@H](N)CCCN=C(N)N)[C@@H](O)[C@@H]1O			EC50	cytopathic effect / MTT	RF	MT-4	30 µM
CCCCCOC(=O)C[C@H](NP(=O)(CO[C@H](CF)COc1nccc(N)n1)Oc1ccccc1)C(=O)OCCCCC			EC50	luminescence	BaL	TZM-bl	>43.21 µM
Cn1cnc2c(ncn2[C@@H]2O[C@H](CO[Si](C)(C)C(C)(C)C)C3(OS(=O)(=O)C=C3N)[C@H]2O[Si](C)(C)C(C)(C)C)c1=O			EC50	trypan blue	IIIB	MT-4	0.18 µg/mL
CCCCCCCCC#Cc1cn(COCCO)c(=O)[nH]c1=O			EC90	RT activity	LAI	PBMC	~105 µM
CCCCCOC(=O)C[C@H](NP(=O)(CO[C@@H](CF)COc1nccc(N)n1)Oc1ccccc1)C(=O)OCCCCC			EC50	luminescence	NL4-3	TZM-bl	3.47 µM

8 of the rows above, restated:

SMILES,mutations,setting,endpoint,method,strain or isolate,cells,value
Nc1nc(N)c2ncn([C@H]3CC[C@@H](CO)O3)c2n1,,,EC50,p24,LAV,C3,17 µM
Nc1ncnc2c1ncn2CCOCP(=O)(O)O,,,EC50,syncytia,IIIB,CEM,8.5 ± 2.1 µM
Nc1ccn([C@H]2CC[C@@H](CO)O2)c(=O)n1,RT-Y181C,,EC50,syncytia,IIIB-TSAO-m3T(10)(RT-Y181C),CEM,0.02 µM
O=c1[nH]cnc2c1ncn2[C@H]1CC[C@@H](CO)O1,,,EC50,p24,Isolate 8093,PBMC,0.62 µM
Cn1c2ccccc2c2c1cc(C#N)c(=O)n2-c1ccc([N+](=O)[O-])cc1,RT-K103N Y181C,,EC50,luciferase,NNRTI-resistant,HeLa,0.0276 µM
NS(=O)(=O)c1ccc(NC(=O)CSc2nnc(C(F)(F)F)n2-c2cccc3ccccc23)c(Cl)c1,RT-Y188L,,EC50,luciferase,NL4-3,HeLa + HeLa-JC53,0.049 µM
Cc1ccc(-n2c(C)nnc2SCC(=O)Nc2ccc(S(N)(=O)=O)cc2Cl)c2ccccc12,RT-Y188L,,EC50,luciferase,NL4-3,HeLa + HeLa-JC53,0.02 µM
CCCCCOC(=O)C[C@H](NP(=O)(CO[C@@H](CF)COc1nccc(N)n1)Oc1ccccc1)C(=O)OCCCCC,,,EC50,luminescence,NL4-3,TZM-bl,3.47 µM